SMILES strings stand for the structures.

The test system of this experiment is Hepatitis C virus. Put plainly: Antiviral activity against HCV genotype 1b harboring A156T mutant infected in human Huh7 cells incubated for 96 hrs by luciferase assay. In kind it is functional, organism-based, Hepacivirus hominis. The conditions noted are these: subtype 1b, Huh-7, 96 h.

By EC50 is commonly meant the concentration needed to bring the measured effect to its halfway point. Compound `CC(C)(C)[C@@H]1NC(=O)O[C@@H]2CCC[C@H]2OC/C=C/C(F)(F)c2nc3ccccc3nc2O[C@@H]2C[C@@H](C(=O)N[C@]3(C(=O)NS(=O)(=O)C4(C)CC4)C[C@H]3C(F)F)N(C2)C1=O` displayed an EC50 of 230 nM. In other words, the sub-micromolar range.

The values are drawn from ChEMBL document CHEMBL4828740, “Discovery of Quinoxaline-Based P1-P3 Macrocyclic NS3/4A Protease Inhibitors with Potent Activity against Drug-Resistant Hepatitis C Virus Variants” (J Med Chem, 2021).
